Pooled drug test results. Numbers come from NIAID ChemDB, via PubChem.

Common to all: target-level tests

ICn: concentration for n% inhibition. Two numbers with a dash give a range or band. Percent inhibition refers to the dose given; in toxicity tests it is the harm to the cells. Conditions beyond the fields shown may differ between rows. An empty or dashed field is not shown.

compound	tested at	target	organism	method	read-out	strain	result
O=C(O)CCC(=O)N[C@H](C(=O)N[C@@H](CCC(=O)O)C(=O)N[C@@H](CCC(=O)O)C(=O)NC1(C(=O)O)CC1)C(c1ccccc1)c1ccccc1	83.5 µM	Nonstructural protein 3 NTPase/helicase	Hepatitis C virus	-	inhibition	-	22%
CC(=O)N[C@H](C(=O)N[C@H](C(=O)N1C[C@H](Oc2ccc(Cl)cc2)CC1C(=O)NC1(C(=O)O)CC1)C(C)C)C1CCCCC1	-	NS3 protease	Hepatitis C virus	-	IC50	-	50 µM
O=C(O)c1cc2ncc(-c3ccccc3)c(-c3ccc(Cl)cc3)n2n1	-	RNA-dependent RNA polymerase	Hepatitis C virus	-	IC50	-	>10 µM
O=C(Nc1cccc(F)c1)Nc1cccc(-c2nc(C(=O)O)c(O)c(=O)[nH]2)c1	-	HCV polymerase	Hepatitis C virus	-	IC50	-	<100 µM
COc1ccc2ccccc2c1/C=N/NC(=O)c1cc(O)c(O)c(O)c1	10 µM	RNase H	Hepatitis B virus	RNase H / substrate cleavage	inhibition	gtD	>43%
CNC(=O)c1c(-c2ccc(F)cc2)oc2cc(-c3ccc[nH]3)c(OC(C)C)cc12	-	Nonstructural protein 5B	Hepatitis C virus	-	IC50	-	≤0.5 µM
CCOC(=O)c1cnn2c(-c3cccc(Oc4ccccc4)c3)c(-c3ccccc3)cnc12	-	RNA-dependent RNA polymerase	Hepatitis C virus	-	IC50	-	>10 µM
CC(=O)N[C@H](C(=O)N[C@H](C(=O)N1C[C@H](Oc2ccc(F)cc2)CC1C(=O)NC1(C(=O)O)CC1)C(C)C)C1CCCCC1	-	NS3 protease	Hepatitis C virus	-	IC50	-	100 µM
CO[C@@H]1[C@H](O)[C@@H](COP(=O)(O)OP(=O)(O)OP(=O)(O)O)O[C@H]1n1ccc2c(=O)[nH]c(N)nc21	-	NS5B delta .21	Hepatitis C virus	-	IC50	-	3.4 µM
CC(C)C[C@@]1(C(=O)O)C[C@@H](c2ncns2)[C@H](c2nccs2)N1C(=O)c1ccc(C(C)(C)C)cc1	-	RNA-dependent RNA polymerase	Hepatitis C virus	-	IC50	-	<50 µM
CO[C@@H]1[C@H](O)[C@@H](COP(=O)(O)OP(=O)(O)OP(=O)(O)O)O[C@H]1n1cnc2c(=O)[nH]c(N)nc21	-	NS5B delta .21	Hepatitis C virus	-	IC50	-	1.2 µM
Cc1ccc(C(=O)Nc2ccsc2-c2nc(C(=O)O)c(O)c(=O)[nH]2)cc1F	-	HCV polymerase	Hepatitis C virus	-	IC50	-	<25 µM
O=C(/C=C/c1ccc(O)c(O)c1)O[C@H]1[C@H](O)C[C@](O)(C(=O)O)C[C@H]1OC(=O)/C=C/c1ccc(O)c(O)c1	-	HBeAg	Hepatitis B virus	ELISA	IC50	HepG 2.2.15	50.06 µg/mL
CN(C(=O)c1ccc(C(C)(C)C)cc1)c1cc(-c2ccccc2)sc1C(=O)O	-	NS3 ATPase	Hepatitis C virus	-	IC50	-	5–20 µM
CC(=O)N[C@H](C(=O)N[C@@H](CCC(=O)O)C(=O)N[C@@H](CCC(=O)O)C(=O)N[C@@H](CS)C(=O)O)C1CCCCC1	167 µM	Nonstructural protein 3 NTPase/helicase	Hepatitis C virus	-	inhibition	-	74%
Cc1ccc(S(=O)(=O)Nc2cc(-c3ccc(C(=O)O)cc3)sc2C(=O)O)c(C)c1	-	NS3 ATPase	Hepatitis C virus	-	IC50	-	<5 µM
CNC(=O)c1c(-c2ccc(F)cc2)oc2cc(N(C)S(C)(=O)=O)c(OCC(C)=O)cc12	-	Nonstructural protein 5B	Hepatitis C virus	-	IC50	-	≤0.5 µM
C[C@@]1(O)[C@H](O)[C@@H](COP(=O)(O)OP(=O)(O)OP(=O)(O)O)O[C@H]1n1ccc2c(=O)[nH]c(N)nc21	-	NS5B delta .21	Hepatitis C virus	-	IC50	-	1.5 µM
CC(C)(C)OC(=O)NCC(NC(=O)Nc1ccsc1-c1nc(C(=O)O)c(O)c(=O)[nH]1)c1ccccc1	-	HCV polymerase	Hepatitis C virus	-	IC50	-	<25 µM
O=C1NC(=O)C(Cc2cnn3c(C4CCCCC4)c(-c4ccc(OCc5ccccc5)cc4)cnc23)S1	-	RNA-dependent RNA polymerase	Hepatitis C virus	-	IC50	-	>10 µM
CNC(=O)c1c(-c2ccc(F)cc2)oc2cc(-c3c(C)noc3C)c(O)cc12	-	Nonstructural protein 5B	Hepatitis C virus	-	IC50	-	≤0.5 µM
O=C(N[C@@H](Cc1c[nH]c2ccc(O)cc12)C(=O)O)c1ccc2c(c1)nc(-c1ccoc1)n2C1CCCCC1	-	NS5B polymerase	Hepatitis C virus	-	IC50	-	<1 µM
COc1ccccc1-c1cc(-c2ccc(-c3ccccc3)cc2)n2nc(C(=O)O)cc2n1	-	RNA-dependent RNA polymerase	Hepatitis C virus	-	IC50	-	>10 µM
Cc1ccc(S(=O)(=O)Nc2cc(-c3ccc(/C=C/C(=O)O)cc3)sc2C(=O)O)c(C)c1	-	NS3 ATPase	Hepatitis C virus	-	IC50	-	<5 µM
C=C1[C@H](COP(=O)(O)OP(=O)(O)OP(=O)(O)O)[C@@H](O)C[C@@H]1n1cnc2c(=O)[nH]c(N)nc21	-	DNA polymerase	Hepatitis B virus	-	IC50	Polymerase mutant M550V	0.0042 µM
O=C(NCc1ccccc1OC(F)(F)F)Nc1cccc(-c2nc(C(=O)O)c(O)c(=O)[nH]2)c1	-	HCV polymerase	Hepatitis C virus	-	IC50	-	<100 µM
Cc1cc([C@@H]2C[C@@](CC(C)C)(C(=O)O)N(C(=O)c3ccc(C(C)(C)C)cc3)[C@H]2c2nccs2)n[nH]1	-	RNA-dependent RNA polymerase	Hepatitis C virus	-	IC50	-	<50 µM
CC(C)N(C(=O)C1C2CC3CC(C2)CC1C3)c1cc(-c2ccccc2)sc1C(=O)O	-	NS3 ATPase	Hepatitis C virus	-	IC50	-	>20 µM
CCc1nc([C@@H]2C[C@@](CC(C)C)(C(=O)O)N(C(=O)c3ccc(C(C)(C)C)c(OC)c3)[C@H]2c2nccs2)no1	-	RNA-dependent RNA polymerase	Hepatitis C virus	-	IC50	-	<50 µM
CC(=O)N[C@H](C(=O)N[C@H](C(=O)N1C[C@H](Oc2ccc(I)cc2)CC1C(=O)NC1(C(=O)O)CC1)C(C)C)C1CCCCC1	-	NS3 protease	Hepatitis C virus	-	IC50	-	10 µM
O=C(O)CCCC(=O)N[C@@H](CCC(=O)O)C(=O)N[C@@H](CCC(=O)O)C(=O)NC1(C(=O)O)CC1	-	Nonstructural protein 3 NTPase/helicase	Hepatitis C virus	-	IC50	-	>167 µM
O=C(O)c1nc(-c2ccccc2Nc2ccccc2)[nH]c(=O)c1O	-	HCV polymerase	Hepatitis C virus	-	IC50	-	<100 µM
Cc1nnc([C@H]2C[C@@](CC(C)C)(C(=O)O)N(C(=O)c3ccc(C(C)(C)C)cc3)[C@H]2c2nccs2)o1	-	RNA-dependent RNA polymerase	Hepatitis C virus	-	IC50	-	<50 µM
CC(C)N(C(=O)c1ccc(C(F)(F)F)cc1F)c1cc(-c2ccccc2)sc1C(=O)O	-	NS3 ATPase	Hepatitis C virus	-	IC50	-	<5 µM
O=C(O)CCC(=O)N[C@H](C(=O)N[C@@H](CCC(=O)O)C(=O)N[C@H](C(=O)N[C@@H](CS)C(=O)O)c1ccc(-c2ccccc2)cc1)C(c1ccccc1)c1ccccc1	-	Nonstructural protein 3 NTPase/helicase	Hepatitis C virus	-	IC50	-	>16.7 µM
Cc1ccc(C(=O)N(C)c2cc(-c3ccc(Cl)cc3)sc2C(=O)O)cc1	-	NS3 ATPase	Hepatitis C virus	-	IC50	-	5–20 µM
Cc1sc2nc(-c3ccc([N+](=O)[O-])cc3)[nH]c(=O)c2c1C	10 µM	RNase H	Hepatitis B virus	RNase H / substrate cleavage	inhibition	gtD	<24%
CC(C)C[C@@]1(C(=O)O)C[C@H](c2ncno2)[C@H](c2nccs2)N1C(=O)c1ccc(C(C)(C)C)cc1	-	RNA-dependent RNA polymerase	Hepatitis C virus	-	IC50	-	<50 µM
CNC(=O)c1c(-c2ccc(F)cc2)oc2cc(N(C)S(C)(=O)=O)c(OCc3nn(C)cc3Cl)cc12	-	Nonstructural protein 5B	Hepatitis C virus	-	IC50	-	≤0.5 µM
Cc1nnsc1-c1nc2cc(C(=O)N[C@H](C(=O)O)c3c[nH]c4ccc(O)cc34)ccc2n1C1CCCCC1	-	NS5B polymerase	Hepatitis C virus	-	IC50	-	<1 µM
C[C@@]1(O)[C@H](O)[C@@H](COP(=O)(O)OP(=O)(O)OP(=O)(O)O)O[C@H]1n1ccc2c(N)ncnc21	-	NS5B delta .21	Hepatitis C virus	-	IC50	-	17 µM
CC[C@H](C)[C@]1(CC(=O)O)OCCc2c1[nH]c1c(C)c(OCCn3cccn3)cc(C#N)c21	-	HCV polymerase	Hepatitis C virus	nucleotide incorporation	IC50	BB7	0.012 µM
CC(C)C[C@@]1(C(=O)O)C[C@H](c2nnnn2C)[C@H](c2nccs2)N1C(=O)c1ccc(C(C)(C)C)c(Br)c1	-	RNA-dependent RNA polymerase	Hepatitis C virus	-	IC50	-	<50 µM
CSc1ccccc1NC(=O)Nc1cscc1-c1nc(C(=O)O)c(O)c(=O)[nH]1	-	HCV polymerase	Hepatitis C virus	-	IC50	-	<25 µM
COc1cc2c(=O)c(C(=O)c3ccc(C)cc3)cn(Cc3ccc(Cl)cc3)c2cc1OC	-	Nonstructural protein 4B	Hepatitis C virus	scintillation proximity	IC50	-	1.7 µM
COc1cccc(-c2ccc(-c3nc4cc(C(=O)O)[nH]n4c(=O)c3C3CCCCC3)cc2)c1	-	RNA-dependent RNA polymerase	Hepatitis C virus	-	IC50	-	1–10 µM
CC[C@H](C)[C@H](NC(=O)[C@H](CC(C)C)NC(=O)CCCC(=O)O)C(=O)N[C@@H](CC1CCCCC1)C(=O)NC1(C(=O)O)CC1	-	Nonstructural protein 3 NTPase/helicase	Hepatitis C virus	-	IC50	-	>83.5 µM
CNC(=O)c1c(-c2ccc(F)cc2)oc2cc(C3(C)CNC(=O)O3)c(OC(C)C)cc12	-	Nonstructural protein 5B	Hepatitis C virus	-	IC50	-	≤0.5 µM
Cc1ccccc1S(=O)(=O)Nc1cc(-c2ccc(C#N)s2)sc1C(=O)O	-	NS3 ATPase	Hepatitis C virus	-	IC50	-	<5 µM
NC(=O)CC[C@H](NC(=O)[C@@H](NC(=O)CCC(=O)O)C1CCCCC1)C(=O)N[C@@H](CC1CCCCC1)C(=O)N[C@@H](CS)C(=O)O	-	Nonstructural protein 3 NTPase/helicase	Hepatitis C virus	-	IC50	-	<16.7 µM
CC(C)C[C@@]1(C(=O)O)C[C@H](c2ncno2)[C@H](c2nccs2)N1C(=O)c1ccc(C(C)(C)C)c(Br)c1	-	RNA-dependent RNA polymerase	Hepatitis C virus	-	IC50	-	<50 µM
CCOC(=O)c1sc(NC(=O)CSc2nnc(Cc3ccccc3)o2)c(C#N)c1C	10 µM	RNase H	Hepatitis B virus	RNase H / substrate cleavage	inhibition	gtH	>43%
O=C(Nc1cscc1-c1nc(C(=O)O)c(O)c(=O)[nH]1)NS(=O)(=O)c1ccc(-c2ccccc2)cc1	-	HCV polymerase	Hepatitis C virus	-	IC50	-	<25 µM
C[C@H](Cc1ccc(O)c(O)c1)[C@@H](C)Cc1ccc(O)c(O)c1	10 µM	RNase H	Hepatitis B virus	RNase H / substrate cleavage	inhibition	gtH	>43%
O=C(O)c1nc(-c2ccc(S(=O)(=O)Cc3ccccc3Oc3ccc(Cl)cc3Cl)cc2)[nH]c(=O)c1O	-	HCV polymerase	Hepatitis C virus	-	IC50	-	<100 µM
CC(=O)N[C@H](C(=O)N[C@@H](CCC(=O)O)C(=O)N[C@@H](CCC(=O)O)C(=O)NC1(C(=O)O)CC1)C1CCCCC1	167 µM	Nonstructural protein 3 NTPase/helicase	Hepatitis C virus	-	inhibition	-	27%
O=S(=O)(Nc1csc(-c2ccc(Cl)cc2)c1)c1ccccn1	-	NS3 ATPase	Hepatitis C virus	-	IC50	-	5–20 µM

The last 6 rows once more:

CCOC(=O)c1sc(NC(=O)CSc2nnc(Cc3ccccc3)o2)c(C#N)c1C ; tested at: 10 µM ; target: RNase H ; organism: Hepatitis B virus ; method: RNase H / substrate cleavage ; read-out: inhibition ; strain: gtH ; result: >43%
O=C(Nc1cscc1-c1nc(C(=O)O)c(O)c(=O)[nH]1)NS(=O)(=O)c1ccc(-c2ccccc2)cc1 ; target: HCV polymerase ; organism: Hepatitis C virus ; read-out: IC50 ; result: <25 µM
C[C@H](Cc1ccc(O)c(O)c1)[C@@H](C)Cc1ccc(O)c(O)c1 ; tested at: 10 µM ; target: RNase H ; organism: Hepatitis B virus ; method: RNase H / substrate cleavage ; read-out: inhibition ; strain: gtH ; result: >43%
O=C(O)c1nc(-c2ccc(S(=O)(=O)Cc3ccccc3Oc3ccc(Cl)cc3Cl)cc2)[nH]c(=O)c1O ; target: HCV polymerase ; organism: Hepatitis C virus ; read-out: IC50 ; result: <100 µM
CC(=O)N[C@H](C(=O)N[C@@H](CCC(=O)O)C(=O)N[C@@H](CCC(=O)O)C(=O)NC1(C(=O)O)CC1)C1CCCCC1 ; tested at: 167 µM ; target: Nonstructural protein 3 NTPase/helicase ; organism: Hepatitis C virus ; read-out: inhibition ; result: 27%
O=S(=O)(Nc1csc(-c2ccc(Cl)cc2)c1)c1ccccn1 ; target: NS3 ATPase ; organism: Hepatitis C virus ; read-out: IC50 ; result: 5–20 µM